From US6440986B2, “HIV Inhibiting pyrimidine derivatives” (Janssen Pharmaceutica, N.V., priority 1998, dated 2002)

Tested on: HIV-1
Assay: in vitro anti-HIV assay: inhibition of the HIV-induced cytopathic effect in MT-4 cells (MTT)
Assay type: cell-based
Conditions: selectivity index = ratio of CC50 to IC50
Method: A rapid, sensitive and automated assay procedure was used for the in vitro evaluation of anti-HIV agents. An […] T4-cell line, MT-4, which was previously shown (Koyanagi et al., Int. J. Cancer, 36, 445-451, 1985) to be highly susceptible to and permissive for HIV infection, served as the target cell line. Inhibition of the HIV-induced cytopathic effect was used as the end point. The viability of both HIV- and mock-infected cells was assessed spectrophotometrically via the in situ reduction of 3-(4,5-dimethylthiazol-2-yl)-2,5-diphenyltetrazolium bromide (MTT). […] The percent protection achieved by the compound in HIV-infected cells was calculated by the following formula: [formula]
whereby (ODT)HIV is the optical density measured with a given concentration of the test compound in HIV-infected cells; (ODC)HIV is the optical density measured for the control untreated HIV-infected cells: (ODC)MOCK is the optical density measured for the control untreated mock-infected cells; all optical density values were determined at 540 nm. […] The ratio of CC50 to IC50 was defined as the selectivity index (SI).

Question: With `CNc1cc(Cc2c(Cl)cccc2Cl)nc(Nc2ccc(C#N)cc2)n1` [Compound 24] as the compound, how does the SI read?
Answer: 2667

Question: How did the SI turn out when `Cc1cc(C)c(Nc2ccnc(Nc3ccc(C#N)c(O)c3)n2)c(C)c1` [Compound 91] was run?
Answer: 1976

Question: For `COc1cccc(CCNc2cc(Cc3c(Cl)cccc3Cl)nc(Nc3ccc(C#N)cc3)n2)c1` [Compound 8], which SI is on record?
Answer: >12

Question: Which SI does the source give for `COc1ccc(CCNc2cc(Cc3c(Cl)cccc3Cl)nc(Nc3ccc(C#N)cc3)n2)cc1` [Compound 10] here?
Answer: >39

Question: With `CC(C)OCCCNc1cc(Cc2c(Cl)cccc2Cl)nc(Nc2ccc(C#N)cc2)n1.Cl` [Compound 7] as the compound, how does the SI read?
Answer: >102

Question: How did the SI turn out when `N#Cc1ccc(Nc2nc(Cc3c(Cl)cccc3Cl)cc(NCCc3ccccn3)n2)cc1` [Compound 16] was run?
Answer: 105

Question: Which SI does the source give for `N#Cc1ccc(Nc2nccc(Nc3c(Cl)cccc3Cl)n2)cc1` [Compound 65] here?
Answer: 1

Question: Which SI does the source give for `N#Cc1ccc(Nc2cc(Oc3c(Cl)cccc3Cl)nc(N)n2)cc1` [Compound 50] here?
Answer: 100

Question: Which SI does the source give for `Nc1cc(Cc2c(Cl)cccc2Cl)nc(Nc2ccc(Br)cn2)n1` [Compound 32] here?
Answer: >248

Question: For `Nc1nc(Cc2c(Cl)cccc2Cl)cc(Nc2ccc(F)cc2)n1` [Compound 34], which SI is on record?
Answer: 181

Question: For `Nc1cc(Cc2c(Cl)cccc2Cl)nc(Nc2ccc(Br)cc2)n1` [Compound 27], which SI is on record?
Answer: >1169

Question: Which SI does the source give for `Cc1cc(C)c(Nc2ccnc(Nc3ccc(F)cc3F)n2)c(C)c1` [Compound 97] here?
Answer: 415

Question: `CN(C)C=Nc1cc(Cc2c(Cl)cccc2Cl)nc(Nc2ccc(C#N)cc2)n1` [Compound 26, N′-[2-[(4-cyanophenyl)amino]-6-[(2,6-dichlorophenyl)methyl]-4-pyrimidinyl]-N,N-dimethylmethanimidamide] was tested. Which SI did it give?
Answer: 2990

Question: Which SI does the source give for `Cc1ccc(Nc2cc(Cc3c(Cl)cccc3Cl)nc(N)n2)cc1` [Compound 36] here?
Answer: >309

Question: With `Cc1cc(Cl)cc(Cl)c1Oc1ccnc(Nc2ccc(C#N)cc2)n1` [Compound 64] as the compound, how does the SI read?
Answer: >840

Question: For `Clc1cccc(Cl)c1Nc1ccnc(Nc2c(Cl)cccc2Cl)n1` [Compound 92], which SI is on record?
Answer: >2

Question: How did the SI turn out when `Cc1cc(C)c(Nc2ccnc(Nc3ccc(C(N)=O)cc3)n2)c(C)c1` [Compound 100, 4-[[4-[(2,4,6-trimethylphenyl)amino]-2-pyrimidinyl]amino]benzamide] was run?
Answer: 10

Question: Which SI does the source give for `N#Cc1ccc(Nc2nc(Cc3c(Cl)cccc3Cl)cc(NCc3ccccc3)n2)cc1` [Compound 12] here?
Answer: 32

Question: `N#Cc1ccc(Nc2nc(Cc3c(Cl)cccc3Cl)cc(NCCO)n2)cc1` [Compound 2] was tested. Which SI did it give?
Answer: >2890

Question: How did the SI turn out when `N#Cc1ccc(Nc2cc(N)nc(Cc3c(Cl)cccc3Cl)n2)cc1` [Compound 51] was run?
Answer: >221

Question: How did the SI turn out when `Cc1cc(C)c(Nc2ccnc(Nc3ccc(C(N)=O)c(N)c3)n2)c(C)c1` [Compound 101] was run?
Answer: 558

Question: How did the SI turn out when `Cc1cc(C)c(Nc2ccnc(Nc3ccc(C#N)cc3N)n2)c(C)c1` [Compound 90] was run?
Answer: 9

Question: How did the SI turn out when `Nc1nc(Cc2c(Cl)cccc2Cl)cc(Nc2ccccc2)n1` [Compound 38] was run?
Answer: 13

Question: For `Cc1cc(C)c(Nc2ccnc(Nc3ccc(C#N)c(N)c3)n2)c(C)c1` [Compound 102], which SI is on record?
Answer: 63

Question: How did the SI turn out when `Cc1cc(Br)c(Nc2ccnc(Nc3ccc(C#N)cc3)n2)c(Br)c1` [Compound 61, 4-[[4-[(2,6-dibromo-4-methylphenyl)amino]-2-pyrimidinyl]amino]benzonitrile] was run?
Answer: 155

Question: `Cc1cc(Br)cc(C)c1Nc1ccnc(Nc2ccc(C#N)cc2)n1.Cl` [Compound 56] was tested. Which SI did it give?
Answer: 839

Question: How did the SI turn out when `Cc1c(Cc2c(Cl)cccc2Cl)nc(N)nc1Nc1ccc(C#N)cc1` [Compound 46] was run?
Answer: >2

Question: `N#Cc1ccc(Nc2cc(Cc3c(Cl)cccc3Cl)nc(NCCCCO)n2)cc1` [Compound 43] was tested. Which SI did it give?
Answer: >165

Question: For `Cc1cc(C)c(Nc2nc(Nc3ccc(C#N)cc3)ncc2C)c(C)c1` [Compound 63], which SI is on record?
Answer: 198

Question: How did the SI turn out when `Cl.N#Cc1ccc(Nc2cc(Cc3c(Cl)cccc3Cl)nc(NCCO)n2)cc1` [Compound 40] was run?
Answer: 158

Question: How did the SI turn out when `N#Cc1ccc(Nc2nc(Cc3c(Cl)cccc3Cl)cc(NCCc3cccs3)n2)cc1` [Compound 14] was run?
Answer: 40

Question: For `Nc1nc(Cc2c(Cl)cccc2Cl)cc(Nc2ccc(Br)cn2)n1` [Compound 31], which SI is on record?
Answer: 3630

Question: How did the SI turn out when `N#Cc1ccc(Nc2cc(Cc3c(Cl)cccc3Cl)nc(NCCCO)n2)cc1` [Compound 42] was run?
Answer: 88

Question: Which SI does the source give for `N#Cc1ccc(Nc2cc(Cc3c(Cl)cccc3Cl)nc(NCCCN3CCCC3=O)n2)cc1` [Compound 39, 4-[[6-[(2,6-dichloro-phenyl)methyl]-2-[[3-(2-oxo-1-pyrrolidinyl)propyl]amino]-4-pyrimidinyl]amino]benzonitrile] here?
Answer: >65

Question: With `Cc1cc(C)c(Sc2nc(Nc3ccc(C#N)cc3)ncc2C)c(C)c1` [Compound 86] as the compound, how does the SI read?
Answer: >9803

Question: How did the SI turn out when `Cc1cc(Cl)cc(Br)c1Oc1ccnc(Nc2ccc(C#N)cc2)n1` [Compound 74] was run?
Answer: >9523

Question: How did the SI turn out when `N#Cc1ccc(Nc2nccc(Sc3c(Cl)cccc3Cl)n2)cc1` [Compound 59] was run?
Answer: >83333

Question: Which SI does the source give for `CCCCCCCCCCCC(=O)Nc1cc(Cc2c(Cl)cccc2Cl)nc(Nc2ccc(C#N)cc2)n1` [Compound 18] here?
Answer: 29

Question: How did the SI turn out when `Cc1c(Cc2c(Cl)cccc2Cl)nc(N)nc1Nc1ccc(Br)cc1` [Compound 48] was run?
Answer: >1

Question: Which SI does the source give for `N#Cc1ccc(Nc2nc(Cc3c(Cl)cccc3Cl)cc(NCC(O)c3ccccc3)n2)cc1` (centres unmarked) [Compound 4] here?
Answer: >317

Question: With `Cc1cc(C)c(Sc2ccnc(Nc3ccc(C#N)cc3)n2)c(C)c1` [Compound 73] as the compound, how does the SI read?
Answer: >27777

Question: How did the SI turn out when `CNc1nc(Cc2c(Cl)cccc2Cl)cc(Nc2ccc(C#N)cc2)n1` [Compound 41] was run?
Answer: 17

Question: With `N#Cc1ccc(Nc2nccc(Nc3c(Cl)cc(F)cc3Br)n2)cc1` [Compound 67] as the compound, how does the SI read?
Answer: 152

Question: How did the SI turn out when `CCOC(=O)Nc1cc(Cc2c(Cl)cccc2Cl)nc(Nc2ccc(C#N)cc2)n1` [Compound 20] was run?
Answer: 1413

Question: Which SI does the source give for `N#Cc1ccc(Nc2nccc(Oc3c(Cl)cc(Cl)cc3Cl)n2)cc1` [Compound 60] here?
Answer: >350

Question: How did the SI turn out when `Nc1nc(Cc2c(Cl)cccc2Cl)cc(Nc2ccc(Br)cc2)n1` [Compound 28] was run?
Answer: >253

Question: `CCCCCCCC(=O)Nc1cc(Cc2c(Cl)cccc2Cl)nc(Nc2ccc(C#N)cc2)n1` [Compound 17, N-[6-[(2,6-dichloro-phenyl)methyl]-2-[(4-cyano-phenyl)amino]-4-pyrimidinyl]octanamide] was tested. Which SI did it give?
Answer: 54

Question: For `Cc1cc(C)c(Oc2ccnc(Nc3ccc(C#N)cc3)n2)c(C)c1` [Compound 58, 4-[[4-(2,4,6-trimethylphenoxy)-2-pyrimidinyl]amino]benzonitrile], which SI is on record?
Answer: >34482

Question: For `Cc1ccc(Nc2nc(N)cc(Cc3c(Cl)cccc3Cl)n2)cc1` [Compound 35], which SI is on record?
Answer: 409

Question: Which SI does the source give for `Cc1cc(C)c(Nc2ccnc(Nc3ccc(Br)cn3)n2)c(C)c1` [Compound 98] here?
Answer: 7

Question: For `Nc1nc(Cc2c(Cl)cccc2Cl)cc(Nc2ccc(Cl)cc2)n1` [Compound 30], which SI is on record?
Answer: >228

Question: With `Cc1cc(C#N)cc(C)c1Oc1ccnc(Nc2ccc(C#N)cc2)n1` [Compound 81] as the compound, how does the SI read?
Answer: >90909

Question: How did the SI turn out when `Nc1cc(Cc2c(Cl)cccc2Cl)nc(Nc2ccccc2)n1` [Compound 37] was run?
Answer: 75

Question: `N#Cc1ccc(Nc2nc(Cc3c(Cl)cccc3Cl)cc(NC(=O)CN3CCCCC3)n2)cc1` [Compound 25, N-[6-[(2,6-dichloro-phenyl)methyl]-2-[(4-cyano-phenyl)amino]-4-pyrimidinyl]-1-piperidine-acetamide] was tested. Which SI did it give?
Answer: >1272

Question: Which SI does the source give for `N#Cc1ccc(Nc2cc(Cc3c(Cl)cccc3Cl)nc(N)n2)cc1` [Compound 45] here?
Answer: 5688

Question: Which SI does the source give for `Nc1cc(Cc2c(Cl)cccc2Cl)nc(Nc2ccc(Cl)cc2)n1` [Compound 29] here?
Answer: >1324
